Source: PubChem BioAssay AID624099 (ICCB-Longwood, 2012)
This is one part, drawn at random, of about 21,000 reagents. Over the whole deposit, 497 (2.4%) got an active call. 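Higher z means weaker E2 silencing; only reporter increases were scored, and knock-downs that hurt cell survival may mask genuine repressor factors.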 Unmarked entries are inactive. Reagents against one gene are numbered here.

- Test: 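Human genes that papillomavirus E2 requires to repress the HPV18 LCR promoter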 (primary screen)
- Cell system: human C33A cervical carcinoma cells (HPV-negative) stably expressing BPV1 E2 and an HPV18 LCR luciferase reporter
- Reagent: siRNA pool against human genes, 40 nM
- Time to read-out: 72 h
- Read-out: 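Per-well luciferase luminescence, z-scored on each plate against the plate mean and SD with control wells left out, then averaged across three replicate plates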
- Direction: mean z-score and z-score: higher = stronger reporter signal, weaker E2 silencing
- Rule for the call: 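Mean z ≥ 2 together with z ≥ 2 in two or more of the three replicates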

no.	gene	pool no.	mean z-score	z-score, replicate A	z-score, replicate B	z-score, replicate C
1	DMTN (dematin actin binding protein)	1	0.35	0.32	0.4	0.31
2	TMEM127 (transmembrane protein 127)	1	-0.99	-0.88	-0.89	-1.19
3	GFOD1 (Gfo/Idh/MocA-like oxidoreductase domain containing 1)	1	-0.36	-0.16	-0.29	-0.65
4	GFOD1 (Gfo/Idh/MocA-like oxidoreductase domain containing 1)	2	0.13	-0.21	0.35	0.24
5	SHISA7 (shisa family member 7)	1	0.27	0.4	0.15	0.26
6	PAK4 (p21 (RAC1) activated kinase 4)	1	0.3	-0.05	0.36	0.61
7	CCR2 (C-C motif chemokine receptor 2)	1	-0.3	-0.7	-0.24	0.05
8	FCGR2C (Fc gamma receptor IIc (gene/pseudogene))	1	-0.68	-0.48	-0.78	-0.78
9	PARD6G (par-6 family cell polarity regulator gamma)	1	0.83	0.79	0.68	1.02
10	PARPBP (PARP1 binding protein)	1	-1.15	-1.04	-1.2	-1.21
11	SCML1 (Scm polycomb group protein like 1)	1	-0.31	-0.46	-0.45	-0.01
12	CCZ1B (CCZ1B vacuolar protein trafficking and biogenesis associated)	1	-0.32	-0.3	-0.41	-0.25
13	SHPK (sedoheptulokinase)	1	-0.69	-0.44	-0.56	-1.07
14	C12orf71 (chromosome 12 open reading frame 71)	1	0.24	0.66	-0.1	0.17
15	SYT14P1 (synaptotagmin 14 pseudogene 1)	1	-1.37	-1.25	-1.73	-1.13
16	BFAR (bifunctional apoptosis regulator)	1	-1.06	-1.09	-1.13	-0.94
17	GEM (GTP binding protein overexpressed in skeletal muscle)	1	0.04	0.49	-0.19	-0.19
18	TMC4 (transmembrane channel like 4)	1	0.75	0.24	1.22	0.8
19	FAR2 (fatty acyl-CoA reductase 2)	1	-0.26	-0.43	-0.7	0.36
20	IFNB1 (interferon beta 1)	1	1.03	1.02	1.09	0.99
21	MTPAP (mitochondrial poly(A) polymerase)	1	-1.34	-1.56	-1.39	-1.07
22	SUMF1 (sulfatase modifying factor 1)	1	2.42 (active)	2.2	2.62	2.44
23	DTX3L (deltex E3 ubiquitin ligase 3L)	1	0.13	0.53	-0.25	0.09
24	SFXN4 (sideroflexin 4)	1	1.15	1.14	1.2	1.12
25	PTGS1 (prostaglandin-endoperoxide synthase 1)	1	-0.9	-0.94	-1.12	-0.64
26	GPR141 (G protein-coupled receptor 141)	1	0.64	0.78	0.75	0.39
27	MTFP1 (mitochondrial fission process 1)	1	-0.58	-0.3	-1.04	-0.4
28	CD300LF (CD300 molecule like family member f)	1	-0.84	-1.12	-0.72	-0.68
29	FLJ40536 (retired record)	1	-0.27	-0.49	-0.24	-0.07
30	DUSP28 (dual specificity phosphatase 28)	1	2.36 (active)	2.18	2.42	2.48
31	COL12A1 (collagen type XII alpha 1 chain)	1	-0.34	-0.44	-0.5	-0.1
32	TADA3 (transcriptional adaptor 3)	1	1.34	1.6	1.2	1.22
33	DMRT2 (doublesex and mab-3 related transcription factor 2)	1	-1.17	-1	-1.22	-1.28
34	LINC00299 (long independently transcribed non-coding RNA 299)	1	-0.03	-0.2	0.19	-0.08
35	CENPI (centromere protein I)	1	0.25	0.06	0.5	0.19
36	SIGLEC8 (sialic acid binding Ig like lectin 8)	1	1.44	1.56	1.44	1.32
37	MS4A4A (membrane spanning 4-domains A4A)	1	1.2	1.8	1.06	0.73
38	ZNF565 (zinc finger protein 565)	1	0.1	0.33	0.18	-0.21
39	NIPSNAP3A (nipsnap homolog 3A)	1	1.59	1.57	2.04	1.16

Individual results from the list:
Result of PAK4 (p21 (RAC1) activated kinase 4) in “z-score, replicate A”: -0.05
Under “z-score, replicate B”, LINC00299 (long independently transcribed non-coding RNA 299) reads 0.19
Entry of SHPK (sedoheptulokinase) under “mean z-score”: -0.69
SHISA7 (shisa family member 7), z-score, replicate A: 0.4
Under “z-score, replicate C”, FAR2 (fatty acyl-CoA reductase 2) reads 0.36
Entry of SYT14P1 (synaptotagmin 14 pseudogene 1) under “mean z-score”: -1.37
